Experimental data as given in PubChem BioAssay AID743269 (The Scripps Research Institute Molecular Screening Center, 2014).
The list shows a part of the results, in another mix than the full data. Active and inactive are the calls of the source.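 Rule for the calls: active = inhibition above the screen-wide mean plus 3 SD (cut at about 13% in these data); inactive = the rest.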

System: HIV-1 integrase (with human LEDGF/p75)
Assay: blockers of LEDGF/p75-dependent integrase strand transfer – biochemical, TR-FRET, high throughput, primary screen (AID 743269);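 note: signal is the Cy5 over europium emission ratio at 671 and 618 nm; 0% = plate median of compound wells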
Conditions: TR-FRET IN-LEDGF/p75 DNA integration, Eu/Cy5; at 3.7 µM; stronger effect = higher value

Compound	inhibition
O=[N+]([O-])c1ccc2c(c1)nnn2O	inactive: -0.45%
CN(C(=O)Cc1ccc(Cl)c(Cl)c1)[C@H]1CC[C@@]2(CCCO2)C[C@@H]1N1CCCC1	inactive: -2.68%
N#CCCN(C(=O)COC(=O)C(O)(c1ccccc1)c1ccccc1)c1ccc(F)cc1	inactive: -2.05%
CN(C(=O)Cc1ccccc1)[C@@H]1CC[C@]2(CCCO2)C[C@H]1N1CCCC1	inactive: -5.82%
CCOP1(=S)c2c(C)nn(CCC#N)c2N=C(c2ccc(F)cc2)N1C (stereo not drawn)	inactive: -0.64%
COc1cc(C(=O)NCC2(N3CCOCC3)CCCCC2)cc(Cl)c1OC(C)C	inactive: 3.94%
O=[As](O)(O)c1cccnc1	inactive: -6.68%
CS(=O)(=O)c1ccc(Cl)c(NC(=O)COC(=O)C(O)(c2ccccc2)c2ccccc2)c1	inactive: 4.21%
O=C(OC1CN2CCC1CC2)c1ccc(Cl)cc1 (stereo not drawn)	inactive: 1.13%
O=[As](O)(c1cccc(O)c1)c1cccc(O)c1	inactive: 2.98%
Cc1cccc(OCC(=O)OC2CN3CCC2CC3)c1 (stereo not drawn)	inactive: -1.28%
CCCOP(=S)(Nc1nc(N)cc(=O)[nH]1)OCCC	inactive: 2.11%
Nc1cccc2c([As](=O)(O)O)cccc12	active: 41.8%
Cc1ccc(NCCc2c([N+](=O)[O-])cc([N+](=O)[O-])cc2[N+](=O)[O-])cc1	inactive: 3.37%
COc1cc(C2NCCC3(OCCO3)C2(C)C)cc(OC)c1OC (stereo not drawn)	inactive: -0.97%
CCOP(=O)(Nc1cccc2ccccc12)OCC	inactive: -2.51%
CN(CCCl)Cc1cc(Cl)c(NC2=NCCN2)c(Cl)c1	inactive: -1.67%
CCOP(=O)(Nc1ccc(C)cn1)OCC	inactive: -2.83%
O=P1(Nc2ccccn2)COc2ccccc2OC1	inactive: 1.5%
CCC1=CC2Cc3nc4ccc(Cl)cc4c(N)c3C(C1)C2 (stereo not drawn)	inactive: -5.21%
CCOP(=O)(NC(=NC(C)c1ccccc1)NC(C)c1ccccc1)OCC (stereo not drawn)	inactive: 1.22%
O=P1(N(CCCl)CCCl)NCCC(C(F)(F)F)O1 (stereo not drawn)	inactive: -0.41%
Clc1n[nH]nc1-c1nn[nH][15n]1	inactive: -0.38%
CC(C)(C)C(=O)NC(Sc1ncccn1)C(Cl)(Cl)Cl (stereo not drawn)	inactive: -1.19%
COc1ccccc1CNC(=O)COC(=O)C(O)(c1ccccc1)c1ccccc1	inactive: 0.09%
CC1(CBr)Cn2c(nc3ccccc3c2=O)S1 (stereo not drawn)	inactive: 2.78%
CC(C)/C=N\N=C(\N)N[N+](=O)[O-]	inactive: -2.17%
CN(C(=O)Cc1ccc(Cl)c(Cl)c1)[C@@H]1CCCC[C@H]1N1CCCC1	inactive: -4.04%
